## Potato spindle tuber viroid, stem 15: variant abundance in plants

The measurements come from Wu et al. 2024 (doi:10.1371/journal.ppat.1012142).

The pool varies stem 15 of the PSTVd intermediate strain in the pattern CUGGAGCGAUNGNNUNNG; wild type is CUGGAGCGAUCGCUUCGG (upper and lower strand joined, each 5' to 3', the first 9 letters being the upper strand).

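A pool of all variants was put on leaves of three Nicotiana benthamiana plants. Samples came from the inoculated region at 5 days, the leaf margin at 10 and upper systemic leaves at 12.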

Numbers give reads per thousand; 0 = not seen among the reads, higher = more abundant. Each site shows the three plants. "Pool" is the share in the plasmid pool used as inoculum, on the same scale. The inoculated region was read from the minus strand, the other sites from the plus strand.

sequence,pool,inoculated region,leaf margin,systemic leaves
CUGGAGCGAUUGGUUGGG,0.889,0.313 / 0.230 / 0.354,0.0620 / 0 / 0.0159,0 / 0 / 0
CUGGAGCGAUUGGUUGUG,2.50,2.09 / 1.70 / 2.16,0.0827 / 0.0545 / 0.0159,0.0198 / 0.0222 / 0
CUGGAGCGAUUGGUUUAG,2.55,3.64 / 2.66 / 2.96,0.558 / 0.382 / 0.840,0.931 / 0.687 / 0.518
CUGGAGCGAUUGGUUUCG,0.614,0.274 / 0.251 / 0.279,0.0620 / 0.0273 / 0.0159,0 / 0 / 0
CUGGAGCGAUUGGUUUGG,1.84,1.35 / 1.99 / 1.69,0.0620 / 0.0273 / 0.0476,0.0198 / 0 / 0.0199
CUGGAGCGAUUGGUUUUG,2.36,1.13 / 2.18 / 1.17,0.103 / 0.0273 / 0.0317,0 / 0 / 0.0399
CUGGAGCGAUUGUAUAAG,0.760,1.94 / 1.11 / 1.64,0.103 / 0 / 0.0634,0 / 0 / 0
CUGGAGCGAUUGUAUACG,0.727,0.254 / 0.230 / 0.391,0.0620 / 0 / 0.0317,0 / 0 / 0
CUGGAGCGAUUGUAUAGG,0.954,1.96 / 1.30 / 0.298,0.0414 / 0 / 0.0317,0 / 0 / 0
CUGGAGCGAUUGUAUAUG,0.873,0.235 / 0.272 / 0.447,0.103 / 0.0545 / 0.0476,0 / 0 / 0
CUGGAGCGAUUGUAUCAG,0.937,1.86 / 1.40 / 1.71,0.579 / 0.0273 / 0.745,0.713 / 0 / 0
CUGGAGCGAUUGUAUCCG,0.760,0.352 / 0.314 / 0.316,0.0827 / 0.0273 / 0,0 / 0 / 0
CUGGAGCGAUUGUAUCGG,0.889,0.274 / 0.293 / 0.149,0.0827 / 0 / 0.0159,0 / 0 / 0
CUGGAGCGAUUGUAUCUG,0.840,0.235 / 0.377 / 0.149,0.145 / 0 / 0.0159,0 / 0 / 0
CUGGAGCGAUUGUAUGAG,0.986,2.47 / 1.19 / 1.36,0.889 / 0.0545 / 1.08,0.812 / 0.842 / 0
CUGGAGCGAUUGUAUGCG,0.743,0.254 / 0.272 / 0.335,0.103 / 0.0545 / 0,0 / 0 / 0
CUGGAGCGAUUGUAUGGG,4.28,5.19 / 4.31 / 3.28,0.103 / 0.0545 / 0.143,0.0198 / 0 / 0.0598
CUGGAGCGAUUGUAUGUG,0.954,0.372 / 0.377 / 0.316,0.165 / 0.0818 / 0.0476,0 / 0 / 0.0199
CUGGAGCGAUUGUAUUAG,1.24,1.98 / 1.05 / 1.77,0.641 / 0.491 / 0.824,0.693 / 0.421 / 0.478
CUGGAGCGAUUGUAUUCG,1.00,1.90 / 1.21 / 1.40,0.558 / 0.0273 / 0.587,0.733 / 0.487 / 0
CUGGAGCGAUUGUAUUGG,3.04,4.46 / 2.41 / 3.54,0.662 / 0.627 / 0.935,0.812 / 0.620 / 0.359
CUGGAGCGAUUGUAUUUG,1.23,2.04 / 1.55 / 1.95,0.579 / 0.382 / 0.967,0.832 / 0.665 / 0.0199
CUGGAGCGAUUGUCUAAG,0.776,2.11 / 0.942 / 1.25,0.765 / 0.354 / 1.11,0.931 / 0.554 / 0.339
CUGGAGCGAUUGUCUACG,0.857,1.74 / 1.05 / 1.49,0.103 / 0.0273 / 0.935,0 / 0 / 0
CUGGAGCGAUUGUCUAGG,0.889,1.88 / 0.942 / 1.64,0.806 / 0.0273 / 0.745,0 / 0 / 0
CUGGAGCGAUUGUCUAUG,1.94,2.21 / 1.61 / 1.68,0.455 / 0.327 / 0.745,1.25 / 0.554 / 0.478
CUGGAGCGAUUGUCUCAG,1.00,2.29 / 1.03 / 1.51,0.641 / 0.872 / 0.999,0.733 / 0.554 / 0.438
CUGGAGCGAUUGUCUCCG,1.02,2.04 / 1.32 / 1.40,0.496 / 0.0818 / 0.888,1.07 / 0.532 / 0
CUGGAGCGAUUGUCUCGG,0.873,1.90 / 0.963 / 1.84,0.641 / 0.0545 / 0.872,0 / 0 / 0
CUGGAGCGAUUGUCUCUG,0.614,2.13 / 1.30 / 0.409,0.0827 / 0 / 0.0317,0 / 0 / 0.0199
CUGGAGCGAUUGUCUGAG,0.921,2.13 / 1.26 / 1.34,0.476 / 0.463 / 0.856,0.812 / 0.753 / 0.359
CUGGAGCGAUUGUCUGCG,0.743,1.86 / 0.859 / 1.47,0.0827 / 0 / 0.0159,0 / 0 / 0
CUGGAGCGAUUGUCUGGG,0.873,1.45 / 1.15 / 1.60,0.434 / 0 / 0.856,0 / 0 / 0
CUGGAGCGAUUGUCUGUG,0.743,1.92 / 1.15 / 1.81,0.145 / 0 / 0,0 / 0 / 0
CUGGAGCGAUUGUCUUAG,0.663,2.21 / 1.11 / 1.38,0.703 / 0.491 / 0,0 / 0.620 / 0.458
CUGGAGCGAUUGUCUUCG,0.824,2.00 / 1.11 / 1.32,0.600 / 0.409 / 0.935,0.772 / 0.643 / 0.299
CUGGAGCGAUUGUCUUGG,0.792,2.29 / 0.963 / 1.53,0.620 / 0.627 / 0.793,0.752 / 0.465 / 0.498
CUGGAGCGAUUGUCUUUG,0.711,1.82 / 1.15 / 1.41,0.641 / 0.463 / 1.08,0.871 / 0.554 / 0.438
CUGGAGCGAUUGUGUAAG,0.937,1.84 / 0.984 / 1.49,0.517 / 0 / 0.888,0.891 / 0 / 0
CUGGAGCGAUUGUGUACG,0.905,0.391 / 0.251 / 0.409,0.0207 / 0.0818 / 0.0317,0 / 0 / 0
CUGGAGCGAUUGUGUAGG,1.05,0.176 / 1.15 / 0.409,0.0620 / 0.0273 / 0.0159,0 / 0 / 0
CUGGAGCGAUUGUGUAUG,0.970,0.235 / 0.209 / 0.335,0.0620 / 0 / 0.0317,0 / 0 / 0
CUGGAGCGAUUGUGUCAG,0.889,1.96 / 0.921 / 1.71,0.600 / 0.0545 / 0.888,0 / 0 / 0
CUGGAGCGAUUGUGUCCG,0.986,0.391 / 0.272 / 0.298,0.0207 / 0 / 0.0159,0 / 0 / 0
CUGGAGCGAUUGUGUCGG,0.873,0.274 / 0.314 / 0.279,0.0207 / 0.0818 / 0,0 / 0 / 0
CUGGAGCGAUUGUGUCUG,0.743,0.372 / 0.314 / 0.316,0 / 0.109 / 0.0317,0 / 0 / 0
CUGGAGCGAUUGUGUGAG,0.954,1.39 / 1.09 / 1.36,0.662 / 0.0273 / 0.904,0.713 / 0 / 0
CUGGAGCGAUUGUGUGCG,1.03,2.27 / 2.01 / 0.261,0.124 / 0.0273 / 0.0476,0 / 0 / 0
CUGGAGCGAUUGUGUGGG,0.954,0.430 / 0.314 / 0.298,0 / 0.0545 / 0.0159,0 / 0 / 0
CUGGAGCGAUUGUGUGUG,0.760,0.294 / 0.314 / 0.149,0.0827 / 0.0273 / 0.0159,0 / 0 / 0
CUGGAGCGAUUGUGUUAG,1.08,1.72 / 1.15 / 1.25,0.517 / 0.518 / 0.872,0.871 / 0.643 / 0.498
CUGGAGCGAUUGUGUUCG,0.743,2.27 / 1.15 / 1.77,0.124 / 0.0818 / 0.0317,0 / 0 / 0
CUGGAGCGAUUGUGUUGG,0.824,2.04 / 1.17 / 1.40,0.0620 / 0.0273 / 0.919,0 / 0 / 0
CUGGAGCGAUUGUGUUUG,0.808,2.02 / 0.984 / 1.27,0.0620 / 1.69 / 1.01,0 / 0 / 0
CUGGAGCGAUUGUUUAAG,0.824,2.02 / 0.775 / 1.53,0.0414 / 0.0545 / 0.983,0 / 0 / 0
CUGGAGCGAUUGUUUACG,0.727,0.352 / 0.314 / 0.205,0.103 / 0 / 0,0 / 0 / 0

Excerpt, the final 5 entries:

| sequence | pool | inoculated region | leaf margin | systemic leaves |
|---|---|---|---|---|
| CUGGAGCGAUUGUGUUCG | 0.743 | 2.27 / 1.15 / 1.77 | 0.124 / 0.0818 / 0.0317 | 0 / 0 / 0 |
| CUGGAGCGAUUGUGUUGG | 0.824 | 2.04 / 1.17 / 1.40 | 0.0620 / 0.0273 / 0.919 | 0 / 0 / 0 |
| CUGGAGCGAUUGUGUUUG | 0.808 | 2.02 / 0.984 / 1.27 | 0.0620 / 1.69 / 1.01 | 0 / 0 / 0 |
| CUGGAGCGAUUGUUUAAG | 0.824 | 2.02 / 0.775 / 1.53 | 0.0414 / 0.0545 / 0.983 | 0 / 0 / 0 |
| CUGGAGCGAUUGUUUACG | 0.727 | 0.352 / 0.314 / 0.205 | 0.103 / 0 / 0 | 0 / 0 / 0 |

With 36,693-63,082 reads a sample, very low values are single reads. The authors trace changes outside the varied positions to PCR and sequencing errors or to mutation in the plant; presence does not show that a variant is infectious alone. Wild type was 10.2 per thousand in the pool and the most common sequence in every sample (inoculated region 285, 367, 312; leaf margin 785, 865, 782; systemic leaves 854, 898, 915).